Here are results for 1 molecule from patent EP2797914B1, “NIFURATEL SULFOXIDE FOR USE IN THE TREATMENT OF BACTERIAL INFECTIONS” (Polichem SA, priority 2011, dated 2013).

Structures are written as SMILES.

One data set deals with Atopobium vaginae. The data set can be described thus: MIC by agar dilution method (CLSI M07-A8 / M11-A7); efficiency coefficient derived. In kind it is cell-based. Particulars: nifuratel sulfoxide vs. nifuratel. On the procedure:
(§1) The in vitro activity of nifuratel sulfoxide racemate, R-nifuratel sulfoxide and S-nifuratel sulfoxide was tested on a panel of bacteria, which included both Gram positive and Gram negative bacteria.
(§2) The minimum inhibitory concentrations (MICs) of the compounds were determined by the broth microdilution method or by the agar dilution method, according to the National Committee for Clinical Laboratory Standards (CLSI) reference methods M07-A8 and M11-A7.
(§3) The efficiency coefficient (EC) of nifuratel sulfoxide vs. nifuratel was calculated for each tested strain as follows: EC = relative oral bioavailability*[…] [formula]
(§4) Where: • nifS = nifuratel sulfoxide • nif = nifuratel • EC = 1 is indicative of equivalent efficiency between nifuratel sulfoxide and nifuratel. • EC < 1 is indicative of a lower efficiency of nifuratel sulfoxide vs. nifuratel • EC > 1 is indicative of a higher efficiency of nifS vs. nif
(Agar dilution tests growth on a series of plates holding different concentrations.)

Another data set has as its system Gardnerella vaginalis. The data set is described as above. In kind it is cell-based. The settings on record: nifuratel sulfoxide vs. nifuratel. How it is done: as §1, §2, §3, §4

With `C[S+]([O-])CC1CN(/N=C/c2ccc([N+](=O)[O-])o2)C(=O)O1` (racemic) [Nifuratel sulfoxide, nifuratel sulfoxide], the “EC (efficiency coefficient)” value was 1.9 in the data set on Atopobium vaginae (strain CCUG 38953); 7.5 in the data set on Atopobium vaginae (strain CCUG 39382); 7.5 in the data set on Atopobium vaginae (strain CCUG 42099); 1.9 with Atopobium vaginae (strain CCUG 43049); 7.5 in the data set with Atopobium vaginae (strain CCUG 44061); 15 in the data set on Atopobium vaginae (strain CCUG 44156). Further, the “EC (efficiency coefficient)” value in the data set with Atopobium vaginae (strain CCUG 48515) was found to be 15; in the data set with Atopobium vaginae (strain CCUG 55226), 7.5; with Atopobium vaginae (strain CCUG 55227), 1.9; with Gardnerella vaginalis (strain ATCC 14018), 7.5; with Gardnerella vaginalis (strain C2), 15; with Gardnerella vaginalis (strain D2), 3.8. For the same molecule, the “EC (efficiency coefficient)” value is on record as 1.9 with Gardnerella vaginalis (strain E2); 1.9 in the data set with Gardnerella vaginalis (strain G2); 3.8 in the data set with Gardnerella vaginalis (strain H2); 1.9 in the data set with Gardnerella vaginalis (strain J2); 3.8 with Gardnerella vaginalis (strain K2).
